Reference: article PMC12977544, “Phenotypic high-throughput screening identifies modulators of gut microbial choline metabolism” (mBio, 2026)

Test system: gut microbial community of conventional mice
Test: 16S rRNA sequencing of fecal samples of conventional mice
Format: in vivo, Mus musculus C57BL/6
Settings: 30 mg/kg, before vs after treatment

With `Cc1ccc(-c2cc(C(=O)NCCCCCN3CCCCCC3)c(C)[nH]2)cc1C` [Compound 45] the “Alpha diversity of the gut microbial community” value was “moderately decreased” and the “Effect on genus-level taxa of gut microbiome” value was “no significantly altered genus-level taxa”.
